Measured values from several laboratories, pooled; numbers as filed in NIAID ChemDB.

Common to all: whole-cell or culture tests; agent: Aspergillus niger; endpoint: MIC

Neighbouring rows are from separate reports.

{"smiles": "COc1cccc(NC(=O)CSc2nnc(-c3ccc(N=Cc4cccs4)cc3)o2)c1", "strain": "MTCC 282", "read by": "broth dilution", "value": "1000 µg/mL"}
{"smiles": "Clc1cccc(-c2n[nH]c(CN3CCc4sccc4C3)n2)c1", "strain": "NCIM 1196", "read by": "agar", "value": "150 µg/mL"}
{"smiles": "CC(C)(C)COC(=O)N[C@H](Cc1cn(Cc2ccccc2[N+](=O)[O-])nn1)C(=O)OCc1cn(Cc2ccccc2[N+](=O)[O-])nn1", "strain": "MTCC 281", "value": "18.4 µM"}
{"smiles": "COc1ccccc1-c1nc2ccccc2n1C(=O)c1ccc([N+](=O)[O-])cc1", "value": "33 µg/mL"}
{"smiles": "C/C=C/[C@@H]1OC(=O)C=C[C@@H]1O", "value": "739 µg/mL"}
{"smiles": "N#Cc1ccc(Nc2nc(Oc3cccc4cccnc34)nc(N3CCN(c4ccccc4)CC3)n2)cc1C(F)(F)F", "strain": "MTCC 282", "read by": "agar", "value": "100 µg/mL"}
{"smiles": "COc1ccc(-c2cc(=S)ss2)cc1", "read by": "agar", "value": "100 µg/mL"}
{"smiles": "Cc1ccc(NC2=C(Cl)C(=O)c3nc(C)sc3C2=O)cc1", "strain": "KCTC 1231", "read by": "broth dilution", "value": "25 µg/mL"}
{"smiles": "Nc1scc2c1c(=O)oc1ccccc12", "read by": "broth dilution", "value": "16 µg/mL"}
{"smiles": "Cn1ccnc1C(=O)c1nccn1C", "strain": "ATCC 16404", "read by": "broth dilution", "conditions": "24 h", "value": ">512 µg/mL"}
{"smiles": "Cc1nn(-c2ccccc2)c2c1C(c1cccc([N+](=O)[O-])c1)c1c(nc(=S)[nH]c1N)O2", "strain": "MTCC 282", "value": "1000 µg/mL"}
{"smiles": "O=C(c1ccc([N+](=O)[O-])cc1)n1c(-c2ccc([N+](=O)[O-])cc2)nc2ccccc21", "value": "18 µg/mL"}
{"smiles": "Cc1nn(-c2ccccc2)c2c1C(c1ccccc1)c1c(nc(=S)[nH]c1N)O2", "strain": "MTCC 282", "value": ">1000 µg/mL"}
{"smiles": "CCc1c(OC)ccc2sc(C)nc12", "strain": "KCTC 1231", "read by": "broth dilution", "value": ">100 µg/mL"}
{"smiles": "O=C(c1ccc([N+](=O)[O-])cc1)n1c(-c2ccc(O)cc2)nc2ccccc21", "value": "17 µg/mL"}
{"smiles": "O=C(CCN1C(=O)S/C(=C\\c2ccc(O)c(O)c2O)C1=O)Nc1ccccc1S", "value": "12.5 µg/mL"}
{"smiles": "O=C(CSc1nnc(-c2ccc(N=Cc3cccs3)cc2)o1)Nc1ccc([N+](=O)[O-])cc1", "strain": "MTCC 282", "read by": "broth dilution", "value": "250 µg/mL"}
{"smiles": "COc1ccc(Br)cc1/C=N/NC(=O)Cc1cc2ccccc2cc1O", "read by": "MTT", "value": ">150 µM"}
{"smiles": "Clc1ccc(CO[C@H](Cn2ccnc2)c2ccc(Cl)cc2Cl)c(Cl)c1", "read by": "broth dilution", "value": ">48.06 µM"}
{"smiles": "COc1ccc(C[C@H](N)C(=O)N[C@H]2[C@@H](O)[C@H](n3cnc4c(N)ncnc43)O[C@@H]2C(=O)O)cc1", "value": ">100 µg/mL"}
{"smiles": "O=C(O)c1ccccc1-c1nc2ccccc2n1C(=O)c1ccccc1Br", "value": "15 µg/mL"}
{"smiles": "Cc1nn(-c2ccccc2)c2c1C(c1ccc(O)cc1)c1c(nc(=O)[nH]c1N)O2", "strain": "MTCC 282", "value": ">1000 µg/mL"}
{"smiles": "COc1ccc(Br)cc1/C=N/NC(=O)Cc1ccccc1F", "read by": "MTT", "value": ">150 µM"}
{"smiles": "CCCCCCCCCCCCCCCCCCCCCC[C@H](O)CCCCCC", "read by": "broth dilution", "value": "250 µg/mL"}
{"smiles": "C[n+]1c[nH]cc1-c1ccccc1", "strain": "ATCC 16404", "read by": "broth dilution", "conditions": "24 h", "value": "250 µg/mL"}
{"smiles": "O=C(CCN1C(=O)S/C(=C\\c2ccccc2Cl)C1=O)Nc1ccc([N+](=O)[O-])cc1", "value": "12.5 µg/mL"}
{"smiles": "CCC1/C=C/C=C/C=C/C=C/C(OC2OC(C)C(O)C(N)C2O)CC2OC(O)(CC(O)CC(O)C(O)/C=C/C(=O)OC1C)CC(O)C2C(=O)O", "strain": "CGMCC 3.6478", "read by": "broth dilution", "value": "5.63 µg/mL"}
{"smiles": "CN1CCN(c2nc(Nc3ccc(C#N)c(C(F)(F)F)c3)nc(Oc3cccc4cccnc34)n2)CC1", "strain": "MTCC 282", "read by": "agar", "value": "100 µg/mL"}
{"smiles": "Cc1ccc(NC(=O)CCN2C(=O)S/C(=C\\c3ccccc3Cl)C2=O)cc1", "value": ">100 µg/mL"}
{"smiles": "CC1(C)S[C@@H]2[C@H](NC(=O)Cc3ccccc3)C(=O)N2[C@H]1C(=O)O", "strain": "ATCC 16404", "value": "200 µg/mL"}
{"smiles": "Fc1cc(F)c(B2Oc3ccccc3O2)c(F)c1", "read by": "turbidity", "value": "62.5 µg/mL"}
{"smiles": "OC(Cn1cncn1)(Cn1cncn1)c1ccc(F)cc1F", "strain": "NCIM 1196", "read by": "agar", "value": "10 µg/mL"}
{"smiles": "CCC(C)n1ncn(-c2ccc(N3CCN(c4ccc(OC[C@H]5CO[C@](Cn6cncn6)(c6ccc(Cl)cc6Cl)O5)cc4)CC3)cc2)c1=O", "strain": "ATCC 9642", "value": "0.2 µg/mL"}
{"smiles": "COC(=O)c1c(N)oc2c(C)c(C)c(O)c(Sc3cccc(C)c3)c12", "strain": "KCTC 1231", "read by": "broth dilution", "value": "25 µg/mL"}
{"smiles": "Fc1ccc(Cc2nc(CN3CCc4sccc4C3)n[nH]2)cc1", "strain": "NCIM 1196", "read by": "agar", "value": "12.5 µg/mL"}
{"smiles": "c1ccc(N2CCC(n3cc(CN4CCc5sccc5C4)nn3)CC2)cc1", "strain": "NCIM 1196", "read by": "agar", "value": "100 µg/mL"}
{"smiles": "Cc1nc2c(s1)C(=O)C(Nc1ccc(I)cc1)=C(Cl)C2=O", "strain": "KCTC 1231", "read by": "broth dilution", "value": "3.2 µg/mL"}
{"smiles": "CC(=O)O[C@H]1CC[C@@]2(C)C(=CCC3C4CCC(C(=O)/C=C/c5ccc(F)cc5)[C@@]4(C)CCC32)C1", "strain": "MTCC 281", "read by": "turbidity", "value": "300 µg/mL"}
{"smiles": "CCC(C)CC(C)CCCCCCCCC(=O)N[C@H]1C[C@@H](O)[C@H](NCCN)NC(=O)[C@@H]2[C@@H](O)CCN2C(=O)[C@H]([C@H](O)CCN)NC(=O)[C@H]([C@H](O)[C@@H](O)c2ccc(O)cc2)NC(=O)[C@@H]2C[C@@H](O)CN2C(=O)[C@H]([C@@H](C)O)NC1=O", "strain": "21", "read by": "broth dilution", "value": "128 µg/mL"}
{"smiles": "Cc1nc2c(s1)C(=O)C(Nc1ccc(C)c(C)c1)=C(Cl)C2=O", "strain": "KCTC 1231", "read by": "broth dilution", "value": "1.6 µg/mL"}
{"smiles": "O=C(c1ccccc1)N1CCC(n2cc(CN3CCc4sccc4C3)nn2)CC1", "strain": "NCIM 1196", "read by": "agar", "value": ">200 µg/mL"}
{"smiles": "CC(=O)O[C@H]1CC[C@@]2(C)C(=CCC3C4CCC(C(=O)/C=C/c5cc(F)cc(F)c5F)[C@@]4(C)CCC32)C1", "strain": "MTCC 281", "read by": "turbidity", "value": "500 µg/mL"}
{"smiles": "Cn1ccnc1Cc1nccn1C", "strain": "ATCC 16404", "read by": "broth dilution", "conditions": "24 h", "value": "500 µg/mL"}
{"smiles": "Cc1nc2c(s1)C(=O)C(Nc1ccc(F)cc1)=C(Cl)C2=O", "strain": "KCTC 1231", "read by": "broth dilution", "value": "25 µg/mL"}
{"smiles": "N#Cc1ccc(Nc2nc(Oc3cccc4cccnc34)nc(N3CCCCC3)n2)cc1C(F)(F)F", "strain": "MTCC 282", "read by": "agar", "value": "25 µg/mL"}
{"smiles": "CC(=O)c1ccc(B(O)O)cc1", "read by": "turbidity", "value": "125 µg/mL"}
{"smiles": "Nc1[nH]c(=O)ncc1F", "read by": "broth dilution", "value": "6.3 µg/mL"}
{"smiles": "O=C(CCN1C(=O)S/C(=C\\c2cccc(O)c2)C1=O)Nc1ccccc1", "value": "25 µg/mL"}
{"smiles": "Cc1ccccc1Cn1cc(COC(=O)[C@@H](Cc2cn(Cc3ccccc3C)nn2)NC(=O)OCc2ccccc2)nn1", "strain": "MTCC 281", "value": "9.8 µM"}
{"smiles": "Nc1[nH]c(=O)ncc1F", "strain": "KCTC 1231", "read by": "broth dilution", "value": "25 µg/mL"}
{"smiles": "N#Cc1ccc(Nc2nc(Oc3cccc4cccnc34)nc(N3CCN(c4cccc(Cl)c4Cl)CC3)n2)cc1C(F)(F)F", "strain": "MTCC 282", "read by": "agar", "value": "25 µg/mL"}
{"smiles": "C=C1C(=O)OC2C1CC=C(C)C1CCC(=C)C12", "strain": "MTCC 1344", "read by": "agar diffusion", "value": "125 µg/mL"}
{"smiles": "O=C(c1ccc([N+](=O)[O-])cc1)n1c(-c2cccc([N+](=O)[O-])c2)nc2ccccc21", "value": "18 µg/mL"}
{"smiles": "Cc1nn(-c2ccccc2)c2c1C(c1ccccc1Cl)c1c(nc(=O)[nH]c1N)O2", "strain": "MTCC 282", "value": ">1000 µg/mL"}
{"smiles": "Cc1ccc(NC(=O)CSc2nnc(-c3ccc4ncccc4c3)o2)cc1", "read by": "agar", "value": "100 µg/mL"}
{"smiles": "COC(=O)/C=C/c1ccccc1", "read by": "broth dilution / resazurin", "value": "500 µg/mL"}
{"smiles": "Cc1nn(-c2ccccc2)c2c1C(c1ccc(F)cc1)c1c(nc(=O)[nH]c1N)O2", "strain": "MTCC 282", "value": "500 µg/mL"}
{"smiles": "O=C(CSc1nnc(-c2ccc(N=Cc3cccs3)cc2)o1)Nc1ccccc1", "strain": "MTCC 282", "read by": "broth dilution", "value": "500 µg/mL"}
{"smiles": "COc1ccc(NC2=C(Cl)C(=O)c3nc(C)sc3C2=O)cc1", "strain": "KCTC 1231", "read by": "broth dilution", "value": "1.6 µg/mL"}
{"smiles": "COc1ccc(Cc2nc(CN3CCc4sccc4C3)n[nH]2)cc1", "strain": "NCIM 1196", "read by": "agar", "value": "15 µg/mL"}
{"smiles": "CC(=O)Nc1ccc2nc(NC(=O)CSc3nnc(-c4ccc5ncccc5c4)o3)sc2c1", "read by": "agar", "value": "12.5 µg/mL"}
{"smiles": "O=C(c1ccc([N+](=O)[O-])cc1)n1c(-c2ccccc2[N+](=O)[O-])nc2ccccc21", "value": "18 µg/mL"}
{"smiles": "O=C(CCN1C(=O)S/C(=C\\c2ccccc2Cl)C1=O)Nc1ccccc1[N+](=O)[O-]", "value": "25 µg/mL"}
{"smiles": "CC(C)(C)COC(=O)N[C@H](Cc1cn(Cc2ccccc2)nn1)C(=O)OCc1cn(Cc2ccccc2)nn1", "strain": "MTCC 281", "value": "10.6 µM"}
{"smiles": "OB1OC(N2CCOCC2)c2ccccc21", "read by": "turbidity", "value": "7.8 µg/mL"}
{"smiles": "O=C(CSc1nnc(-c2ccc(N=Cc3cccs3)cc2)o1)Nc1ccccc1Cl", "strain": "MTCC 282", "read by": "broth dilution", "value": "500 µg/mL"}
{"smiles": "COc1ccc(NC(=O)CSc2nnc(-c3ccc4ncccc4c3)o2)cc1", "read by": "agar", "value": "100 µg/mL"}
{"smiles": "Cc1nn(-c2ccccc2)c2c1C(c1ccc(F)cc1)c1c(nc(=S)[nH]c1N)O2", "strain": "MTCC 282", "value": "1000 µg/mL"}
{"smiles": "Cc1cc(NC(=O)CCN2C(=O)S/C(=C\\c3ccccc3)C2=O)ccc1Cl", "value": "25 µg/mL"}
{"smiles": "CC(C)(C)COC(=O)N[C@H](Cc1cn(Cc2cccc([N+](=O)[O-])c2)nn1)C(=O)OCc1cn(Cc2cccc([N+](=O)[O-])c2)nn1", "strain": "MTCC 281", "value": "9.2 µM"}
{"smiles": "COC(=O)c1c(N)oc2ccc(O)cc12", "strain": "KCTC 1231", "read by": "broth dilution", "value": "25 µg/mL"}
{"smiles": "COc1ccc(C2C(C#N)=C(N)Oc3c2c(C)nn3-c2ccccc2)cc1", "strain": "MTCC 282", "value": "1000 µg/mL"}
{"smiles": "O=C(c1ccc([N+](=O)[O-])cc1)n1c(-c2ccccc2Cl)nc2ccccc21", "value": "17 µg/mL"}
{"smiles": "Nc1ccccc1Cc1nc(CN2CCc3sccc3C2)n[nH]1", "strain": "NCIM 1196", "read by": "agar", "value": "150 µg/mL"}